# In PMC8828479, “Broadly neutralizing antibodies target a haemagglutinin anchor epitope” (Nature, 2021):
# Target: H5 HA (A/Indonesia/5/2005) (Influenza A virus A/Indonesia/5/2005 …, UniProt A5A5L7)
# Assay: negative-stain EM; […] 2D class averages and 3D reconstructions
# Conditions: both partners purified
binder,measurement,value
"222-1C06 Fab (Fab, V domains shown) VH: EVQLVESGGDLVQPGGSLRLSCVVSGFTFSTYSMNWVRQAPGKGLEWVSYISSSSLSRYYADSVKGRFTISRDNAKNSLSLQLNSLRAEDTAVYYCVRGSITWPTEYYLDYWGQGTLVTVSS VL: EIVMTQSPATLSVSPGERATLSCRASQTIRSDLAWYQQKPGQPPRLIIYGASTRATGIPARFSGSGSGTEFTLTISSLQSEDSAVYFCQQYNNWPPLTFGGGTKVEIK",binding result,binds
